Measurements taken from ChEMBL document CHEMBL2040549, “Inhibition of cap (m7GpppXm)-dependent endonuclease of influenza virus by 4-substituted 2,4-dioxobutanoic acid compounds” (Antimicrob Agents Chemother, 1994).
pIC50: −log10 of the molar value.

Biological target: Polymerase acidic protein (Influenza A virus (A/Puerto Rico/8/1934(H1N1)), UniProt P03433)
Assay: Inhibition of cap 1 ALMV primed Influenza transcriptase

SMILES: O=C(O)/C=C/C(=O)c1ccccc1
- pIC50: < 3.30
